# B1: CR6323 human IgG1 (antibody, V domains shown)
# VH: EVQLVESGAEVKKPGSSVKVSCKASGGTFSSYGISWVRQAPGQGLEWMGDIIGMFGSTNYAQNFQGRLTITADESTSTAYMELSSLRSEDTAVYYCARSSGYYPAYLPHWGQGTLVTVSS
# VL: not shown
# Target: rHA subtype H3 (A/Wyoming/3/03) (Influenza A virus A/Wyoming/3/2003 …, UniProt Q595Z7, strain)
# Assay: ELISA
# Conditions: both partners purified
binder,measurement,value
B1,binding result,no binding (tested: 5 µg/ml IgG1)

# — article PMC2596486 (PLoS ONE, 2008)
